Measured values from several laboratories, pooled; numbers as filed in NIAID ChemDB.

Shared fields: tests in culture; agent: HIV-1; method: p24; measure: EC50

ECn: concentration that inhibits the pathogen or its effect by n%.

smiles | cells | strain | changes | setting | value
CC(C)(C)OC(=O)N[C@@H](Cc1ccccc1)[C@H](O)CNC[C@@H](O)[C@H](Cc1ccc(OCC(=O)N2CCOCC2)cc1)NC(=O)OC(C)(C)C | MT-2 | RF |  |  | 0.04 µM
Cc1ccnc2c1NC(=O)c1cccnc1N2C1CC1 | C8166 | RF |  |  | 0.009 µM
C[C@H](NC(=O)[C@H](CCCN=C(N)N)NC(=O)c1ccc(CNCc2ccccn2)cc1)c1cccc2ccccc12 | PBMC | YU-6 X4 clinical isolate |  |  | 0.046 µM
COc1ccc2c(c1)N(C(=O)OC(C)C)[C@@H](CSC)C(=S)N2 | PBL | I420 AZT-resistant (RT M41L D67N K70R T215Y) | RT-M41L D67N K70R T215Y |  | 0.001 µM
Cc1c2cc(OCc3ccccc3)c(OCc3ccccc3)cc2cc[n+]1C | H9 | IIIB |  |  | >0.171 µg/mL
Nc1ncnc2c1ncn2CCOCP(=O)(O)O | MT-2 | RT P119S L214F | RT-P119S L214F |  | 1.3 µM
CN(C)C1(c2nc(C(=O)NCc3ccc(F)cc3)c(O)c(=O)[nH]2)CCCC1 | MT-4 | IIIB |  | 10% FBS | <0.06 µM
CN[C@@H]1[C@H](O[C@@H]2OC[C@@H](O)[C@H](O)[C@H]2O)[C@@H](O)[C@H](O[C@H]2c3cc(C)c(C(=O)N[C@H](C)C(=O)O)c(O)c3-c3c(cc4c(c3O)C(=O)c3cc(OC)cc(O)c3C4=O)[C@@H]2O)O[C@@H]1C | PBMC | BCF-DIOUM R5 CLADE G |  |  | 2.2 µg/mL
Cc1cn([C@@H]2O[C@H](CO[Si](C)(C)C(C)(C)C)C3(OS(=O)(=O)C=C3N)[C@H]2O[Si](C)(C)C(C)(C)C)c(=O)n(C)c1=O | CEM | RTMC (RT D67N K70R T215F K219Q) | RT-D67N K70R T215F K219Q |  | 0.12 µg/mL
Cc1cn([C@H]2C[C@H](N=[N+]=[N-])[C@@H](CO)O2)c(=O)[nH]c1=O | MT-2 | NL4-3 | PR-V82A |  | 0.002 µM
C=C(C)OC(=O)N1c2cc(Cl)ccc2NC(=S)C1(C)C | PBL | D34 |  |  | 0.003 µM
Cc1cn([C@H]2C[C@H](N=[N+]=[N-])[C@@H](CO)O2)c(=O)[nH]c1=O | MT-2 | M184V(RT-M184V) | RT-M184V |  | 0.009 µM
CCO/N=C(\c1ccc(Br)cc1)C1CCN(C2(C)CCN(C(=O)c3c(C)cc[n+]([O-])c3C)CC2)CC1 | PBMC | R5-06(PR-V77I R5 clinical isolate | PR-V77I |  | 0.0021 µM
CC(C)[C@H](NC(=O)c1ccc2ccccc2n1)C(=O)N[C@@H](Cc1ccccc1)[C@H](O)CN1CC[C@@H](OCc2ccncc2)C[C@H]1C(=O)NC(C)(C)C | Macrophage + Monocytes/macrophages | ADA |  |  | 0.004 µM
O=c1[nH]cnc2c1ncn2[C@H]1CC[C@@H](CO)O1 | MT-2 | T215Y(RT-T215Y) | RT-T215Y |  | 2.2 µM
Cc1cn([C@H]2C[C@H](N=[N+]=[N-])[C@@H](CO)O2)c(=O)[nH]c1=O | C8166 |  | RT-M41L L74V V106A T215F |  | 0.062 µM
Nc1ccn([C@@H]2CO[C@H](CO)S2)c(=O)n1 | C8166 | HXB2 | RT-M184V |  | 6 µM
CC(C)(C)NC(=O)[C@@H]1C[C@@H]2CCCC[C@@H]2CN1C[C@@H](O)[C@H](Cc1ccccc1)NC(=O)[C@H](CC(N)=O)NC(=O)c1ccc2ccccc2n1 | MT-4 | NL4-3 | PR-L63P V82T |  | <0.025 µM
CN(C)C1(c2nc(C(=O)NCc3ccc(F)cc3)c(O)c(=O)[nH]2)CC1 | MT-4 | IIIB |  | 10% FBS | <0.37 µM
CC(C)C1NCCc2cc(O)c(O)cc21 | H9 | IIIB |  |  | 3.21 µg/mL
Nc1ncnc2c1ncn2[C@H]1C=C[C@@H](CO)O1 | PBL | IIIB |  |  | 2.3 µM
Nc1ccn([C@H]2CC[C@@H](CO)O2)c(=O)n1 | PBMC |  | RT-L74V |  | 0.23 µM
O=c1[nH]cnc2c1ncn2[C@H]1CC[C@@H](CO)O1 | MT-4 | 126 3TC (RT-M184V) | RT-M184V |  | 82 µM
O=c1[nH]cnc2c1ncn2[C@H]1CC[C@@H](CO)O1 | PBMC | 8618 CLADE B CLADE B |  |  | 2 µM
Nc1ccn([C@@H]2CS[C@H](CO)O2)c(=O)n1 | PBMC | NL4-3 WT |  |  | 0.01 µM
CN1CCCC1c1nc(C(=O)NCc2ccc(F)cc2)c(O)c(=O)[nH]1 | MT-4 | IIIB |  | 50% human serum | <0.62 µM
CCCCCCCCCCCCCC(=O)OC[C@H](COP(=O)(O)OP(=O)(O)OC[C@@H]1CC[C@H](n2cc(C)c(=O)[nH]c2=O)O1)OC(=O)CCCCCCCCCCCCC | CEM | BRU |  |  | 1.6 µM
S=C(NCCc1cccs1)Nc1ccc(Br)cn1 | PBMC | S762-4 Clinical isolate NRTI-resistant | RT-M41L T215Y |  | 0.04 µM
O=c1[nH]cnc2c1ncn2[C@H]1CC[C@@H](CO)O1 | C8166 | HXB2 |  |  | 2.9 µM
COc1ccc(C(C)c2c3cc(OC)c(OC)cc3cc[n+]2C)cc1OC | H9 | IIIB |  |  | >100 µg/mL
CCN(C)C(C)(C)c1nc(C(=O)NCc2ccc(F)cc2)c(O)c(=O)[nH]1 | MT-4 | IIIB |  | 10% FBS | <0.12 µM
CC1(C)CC[C@]2(C(=O)O)CC[C@]3(C)C(=CC[C@@H]4[C@@]5(C)CC[C@H](O)C(C)(C)[C@@H]5CC[C@]43C)[C@@H]2C1 | PBMC | Primary clinical isolate Rome |  |  | 22.7 µM
Nc1nc(=O)n([C@H]2CO[C@@H](CO)S2)cc1F | U-937 | IIIB |  |  | 0.4 µM
Cc1cn([C@H]2CC[C@@H](CO)O2)c(=O)[nH]c1=O | CEM/TK- | BRU |  |  | >100 µM
COc1cc2ccnc(Cc3ccc4c(c3)OCO4)c2cc1OC | H9 | IIIB |  |  | >21.6 µg/mL
COc1ccc2c(c1)N(C(=O)OC(C)C)[C@@H](CSC)C(=S)N2 | CEM | IIIB | RT-M184I |  | 0.001 µg/mL
CCC[C@@]1(CCc2ccccc2)CC(O)=C([C@H](CC)c2cccc(NS(=O)(=O)c3ccc(C(F)(F)F)cn3)c2)C(=O)O1 | PBMC | 410 clinical isolates AZT-resistant |  |  | <0.04 µM
Nc1ccn([C@H]2CC[C@@H](CO)O2)c(=O)n1 | PBMC | Recombinant | RT-V75I F77L F116Y Q151M |  | 0.22 µM
N#Cc1ccc(S(=O)(=O)Nc2cccc(C(c3c(O)cc(C(CC4CC4)CC4CC4)oc3=O)C3CC3)c2)cc1 | MT-4 | IIIB |  |  | 2.2 µM
Cc1occc1C(=S)Nc1ccc(Cl)c(/C=N/OC(C)(C)C)c1 | CEM | RTMC (RT D67N K70R T215F K219Q) | RT-D67N K70R T215F K219Q |  | 0.025 µg/mL
CC(C)(C)NC(=O)C1N(C(=O)[C@@H](O)[C@H](Cc2ccccc2)NC(=O)[C@H](CS(C)(=O)=O)NC(=O)COc2cccc3ccccc23)CSC1(C)C | PBMC | Clinical isolates |  |  | 0.03 µM
Cc1cn([C@H]2C[C@H](N=[N+]=[N-])[C@@H](CO)O2)c(=O)[nH]c1=O | MT-4 | IIIB |  |  | 0.0005 µM
CCN1CCCCC1c1nc(C(=O)NCc2ccc(F)cc2)c(O)c(=O)[nH]1 | MT-4 | IIIB |  | 50% human serum | <0.5 µM
CC(C)(C)OC(=O)N[C@@H](Cc1ccccc1)[C@H](O)CNC[C@@H](O)[C@H](Cc1ccccc1)NC(=O)C(C)(O)C(C)(C)C | MT-2 | RF |  |  | 0.01 µM
C/C(=C(/CCO)SS/C(CCO)=C(\C)N(C=O)Cc1cnc(C)nc1N)N(C=O)Cc1cnc(C)nc1N | H9/HIV-1(MN) + H9 | MN |  |  | <125 µM
CC(C)CN(C[C@@H](O)[C@H](Cc1ccccc1)NC(=O)O[C@H]1CCOC1)S(=O)(=O)c1ccc(N)cc1 | PBMC | HXB2 | PR-M46I L63P A71V V82F I84V |  | <1.33 µM
COC(=O)[C@H](C)NP(=O)(OC[C@@H]1C=C[C@H](n2cnc3c(N)ncnc32)O1)Oc1ccccc1 | PBL | IIIB |  |  | 0.008 µM
CC(C)=CCN1Cc2cc(Cl)cc3[nH]c(=S)n(c23)C[C@@H]1C | CEM | RTMC (RT D67N K70R T215F K219Q) | RT-D67N K70R T215F K219Q |  | 0.075 µg/mL
c1cc(CN2CCCNCCNCCCNCC2)ccc1CN1CCCNCCNCCCNCC1 | PBMC | 92US077 CLADE B R5X4 |  |  | <0.1 µM
CN(C)C(C)(c1nc(C(=O)NCc2ccc(F)cc2)c(O)c(=O)[nH]1)C(F)(F)F | MT-4 | IIIB |  | 50% human serum | <1 µM
CC(C)(C)NC(=O)[C@@H]1C[C@@H]2CCCC[C@@H]2CN1C[C@@H](O)[C@H](Cc1ccccc1)NC(=O)[C@H](CC(N)=O)NC(=O)c1ccc2ccccc2n1 | MT-2 | HXB2 | PR-G48V |  | 0.0135 µM
CCC(Cc1ccccc1)c1cc(O)c(C(c2cccc(NS(=O)(=O)c3ccc(C#N)cc3)c2)C2CC2)c(=O)o1 | MT-4 | IIIB |  |  | 1.6 µM
CC(C)CN(C[C@@H](O)[C@H](Cc1ccccc1)NC(=O)[C@H](CC(N)=O)NC(=O)c1ccc2ccccc2n1)C(=O)NC(C)(C)C | MT-4 | NL4-3 |  |  | <0.2 µM
CSC[C@H](NC(=O)COc1cccc2ccccc12)C(=O)N[C@@H](Cc1ccccc1)[C@H](O)C(=O)N1CSC(C)(C)[C@H]1C(=O)NC(C)(C)C | PBMC | Clinical isolates |  |  | 0.03 µM
Nc1ncnc2c1ncn2[C@@H]1O[C@H](CO)C[C@@H]1F | MT-2 | Q151M(RT-Q151M) | RT-Q151M |  | 5 µM
CCC(Cc1ccccc1)c1cc(O)c(C(c2cccc(NS(=O)(=O)c3ccc(Cl)cc3)c2)C2CC2)c(=O)o1 | MT-4 | IIIB |  |  | 2 µM
Cc1cccc(C)c1OCC(=O)N[C@@H](Cc1ccccc1)[C@@H](O)C[C@H](Cc1ccccc1)NC(=O)[C@H](C(C)C)N1CCCNC1=O | PBMC | HXB2 | PR-M46I I47V I50V |  | <0.255 µM
O=c1[nH]cnc2c1ncn2[C@H]1CC[C@@H](CO)O1 | PBMC |  | RT-L74V T215Y K219Q |  | 4 µM
Cc1cn([C@H]2C[C@H](N=[N+]=[N-])[C@@H](CO)O2)c(=O)[nH]c1=O | MT-2 | NL4-3 | RT-I178L |  | 0.004 µM
CN1CCN(C)C(c2nc(C(=O)NCc3ccc(F)cc3)c(O)c(=O)[nH]2)C1 | MT-4 | IIIB |  | 10% FBS | <0.12 µM
Cc1cn([C@H]2C[C@H](N=[N+]=[N-])[C@@H](CO)O2)c(=O)[nH]c1=O | PBMC | 458 clinical isolates delavirdine-resistant |  |  | <0.3 µM
Cc1cc(O)c(C(c2cccc(NS(=O)(=O)c3cn(C)cn3)c2)C2CC2)c(=O)o1 | MT-4 | IIIB |  |  | >>3 µM
CN(c1ccccc1)c1nc(C(=O)NCc2ccc(F)cc2)c(O)c(=O)[nH]1 | MT-4 | IIIB |  | 10% FBS | <2.5 µM

4 of the rows above, restated:

smiles | cells | strain | changes | setting | value
C/C(=C(/CCO)SS/C(CCO)=C(\C)N(C=O)Cc1cnc(C)nc1N)N(C=O)Cc1cnc(C)nc1N | H9/HIV-1(MN) + H9 | MN |  |  | <125 µM
Cc1cn([C@H]2C[C@H](N=[N+]=[N-])[C@@H](CO)O2)c(=O)[nH]c1=O | MT-2 | NL4-3 | PR-V82A |  | 0.002 µM
CC(C)[C@H](NC(=O)c1ccc2ccccc2n1)C(=O)N[C@@H](Cc1ccccc1)[C@H](O)CN1CC[C@@H](OCc2ccncc2)C[C@H]1C(=O)NC(C)(C)C | Macrophage + Monocytes/macrophages | ADA |  |  | 0.004 µM
Cc1cn([C@H]2C[C@H](N=[N+]=[N-])[C@@H](CO)O2)c(=O)[nH]c1=O | MT-2 | NL4-3 | RT-I178L |  | 0.004 µM

Lines come from different laboratories, so protocols vary. An empty or dashed field is not shown.